# Source: patent US20260250325A1, “Antiviral Polypeptide Membrane Fusion Inhibitor, and Preparation Method and Application Thereof” (priority 2025, published 2026)
# Where a SMILES comes first, the peptide text is derived from it. The star is where a group is joined. Succinyl(4-O-cholesteryl) = CC(C)CCC[C@@H](C)[C@H]1CC[C@H]2[C@@H]3CC=C4C[C@@H](OC(=O)CCC(=O)*)CC[C@]4(C)[C@H]3CC[C@]12C
# Test system: RSV A long virus strain
# Format: cell-based
# Details: CC50/IC50, HEp-2 cells
# Procedure: In this embodiment, an RSV-A long virus strain was used as an infection virus in the present disclosure. The anti-RSV activity of the synthesized polypeptide was determined through CPE detection.
# The inhibitory activity of the compounds of Table 1-1-Table 1-5, positive polypeptide in Table 1-11, and positive control T-118 against the RSV-A long virus strain was detected.
# Human Epithelial Pharyngeal Carcinoma Cells (HEp-2) were from the American Type Culture Collection (ATCC), with a catalog number CCL-23. The cells were cultured in a DMEM culture solution in which 10% fetal bovine serum, 1% sodium pyruvate, 1% nonessential amino acids, 2 mM glutamine, 100 U/mL penicillin, and 100 μg/mL streptomycin were added. The RSV A long virus strain was from the ATCC, with a catalog number VR-26.
# This study used a plaque reduction experiment to detect the in-vitro activity of a test sample against the RSV A long virus strain. The test sample and a control compound were tested at 8 concentrations in duplicated wells. The HEp-2 cells were digested with trypsin and then diluted to a concentration of 300,000 cells per milliliter by using an experimental culture solution. The diluted cells were added to a 96-well cell test board, with 100 μL per well, corresponding to 30000 cells per well. The cells were cultured overnight in a 37° C. incubator with 5% CO2. On the second day, the test sample was diluted in an experimental culture medium at a fold ratio. The sample diluted at a fold ratio and an equal volume of virus (100 PFU per well) were well mixed and incubated at 37° C. in 5% CO2 for 1 h. Then, the culture solution in the 96-well cell test board was discarded, the sample virus mixed solution (200 μL) was added to the 96-well cell culture plate, and incubated at 37° C. in 5% CO2 for 2 hours. After 2 h, the sample virus mixed solution was discarded, and 200 μL of maintenance culture medium containing 0.8% CMC and the corresponding concentration of the test sample was added. A cell control (cells, without compound treatment or viral infection) and a viral control (cell infection virus, without compound treatment) were set. The cells were cultured for 1 day in the 37° C. incubator with 5% CO2. One day after viral infection, the culture medium was discarded, the cells were fixed with 4% paraformaldehyde, and then permeabilization was performed with 0.5% Triton X-100. After the plate was washed with DPBS, an RSV-specific antibody (RSV antibody, diluted 1:3000) was added and incubated at 37° C. for 1 h. Then, a secondary antibody (donkey anti-goat IgG, diluted 1:500) and incubated at 37° C. for 1 h. The secondary antibody was discarded, a TrueBlue solution was added, dyeing was performed for 10 min; and the plate was washed with running water and then air-dried, and the number of spots in each well was counted by using a microplate imaging counter. Raw data was used for calculating the antiviral activity of the samples.
# The raw data for plaque counts and cell viability tests were used for analyzing the antiviral activity and cytotoxicity of the test samples, respectively. A calculation formula was shown as follows.
# % inhibition rate=100−(sample value-cell control average value)/(virus control average value-cell control average value)×100%
# Non-linear fitting analysis was performed on the inhibition rate of the sample by using GraphPad Prism (version 10), so as to calculate the IC50 and CC50 values for the sample.
# IC50: in an in-vitro antiviral activity experiment, IC50 represented an inhibition ability indicator of a compound to be tested against the Hep-2 cells infected by the RSV A long virus strain.
row,SMILES,Safety index (SI)
1,CC[C@H](C)[C@H](NC(=O)[C@H](CCCCN)NC(=O)[C@H](CCCCN)NC(=O)[C@H](CC(C)C)NC(=O)[C@H](CO)NC(=O)[C@H](CCC(=O)O)NC(=O)[C@H](CCC(=O)O)NC(=O)[C@@H](NC(=O)[C@H](CCCCN)NC(=O)[C@H](CCCCN)NC(=O)[C@H](CC(N)=O)NC(=O)[C@@H](NC(=O)[C@H](CCC(=O)O)NC(=O)[C@H](CCC(=O)O)NC(=O)[C@@H](NC(=O)[C@H](CCCCN)NC(=O)[C@H](CCCCN)NC(=O)[C@H](CCCCN)NC(=O)[C@H](CC(=O)O)NC(=O)[C@H](Cc1ccccc1)NC(=O)[C@H](CCC(=O)O)NC(=O)[C@H](CC(=O)O)NC(C)=O)[C@@H](C)CC)C(C)C)[C@@H](C)CC)C(=O)N[C@@H](CCC(=O)O)C(=O)N[C@@H](CCC(=O)O)C(=O)N[C@@H](CO)C(=O)N[C@@H](CC(=O)O)C(=O)N[C@@H](CCCCN)C(=O)N[C@@H](CCCCN)C(=O)N[C@@H](CC(C)C)C(=O)N[C@@H](CCC(=O)O)C(=O)N[C@@H](CCC(=O)O)C(=O)N[C@H](C(=O)N[C@@H](CCC(=O)O)C(=O)N[C@@H](C)C(=O)N[C@@H](C)C(=O)N[C@@H](C)C(=O)N[C@@H](CCCCN)C(=O)N[C@@H](CCCCNC(=O)CCC(=O)O[C@H]1CC[C@@]2(C)C(=CC[C@H]3[C@@H]4CC[C@H]([C@H](C)CCCC(C)C)[C@@]4(C)CC[C@@H]32)C1)C(N)=O)C(C)C [Compound 22] (Ac-DEFDKKKIEEVNKKIEESLKKIEESDKKLEEVEAAAKK(Succinyl(4-O-cholesteryl))-NH2),324
2,CC[C@H](C)[C@H](NC(=O)[C@H](CCCCN)NC(=O)[C@H](CCC(=O)O)NC(=O)[C@H](CC(C)C)NC(=O)[C@H](CO)NC(=O)[C@H](CCC(N)=O)NC(=O)[C@H](CC(N)=O)NC(=O)[C@@H](NC(=O)[C@H](CCCCN)NC(=O)[C@H](CCC(=O)O)NC(=O)[C@H](CC(N)=O)NC(=O)[C@@H](NC(=O)[C@H](CCC(N)=O)NC(=O)[C@H](CO)NC(=O)[C@H](C)NC(=O)[C@H](CC(=O)O)NC(=O)[C@H](Cc1ccccc1)NC(=O)[C@@H](NC(=O)[C@H](CC(C)C)NC(=O)[C@H](CCC(=O)O)NC(=O)[C@H](CC(=O)O)NC(=O)[C@H](Cc1ccc(O)cc1)NC(C)=O)C(C)C)C(C)C)[C@@H](C)CC)C(=O)N[C@@H](CCCNC(=N)N)C(=O)N[C@@H](CCCCN)C(=O)N[C@@H](CO)C(=O)N[C@@H](CC(=O)O)C(=O)N[C@@H](CCC(=O)O)C(=O)N[C@@H](CC(C)C)C(=O)N[C@@H](CC(C)C)C(=O)N[C@@H](Cc1c[nH]cn1)C(=O)N[C@@H](CC(N)=O)C(=O)N[C@H](C(N)=O)C(C)C [Compound 23] (Ac-YDELVFDASQVNEKINQSLEKIRKSDELLHNV-NH2),>3.43
3,CC[C@H](C)[C@H](NC(=O)[C@H](CCCCN)NC(=O)[C@H](CCC(=O)O)NC(=O)[C@H](CC(C)C)NC(=O)[C@H](CO)NC(=O)[C@H](CCC(N)=O)NC(=O)[C@H](CC(N)=O)NC(=O)[C@@H](NC(=O)[C@H](CCCCN)NC(=O)[C@H](CCC(=O)O)NC(=O)[C@H](CC(N)=O)NC(=O)[C@@H](NC(=O)[C@H](CCC(N)=O)NC(=O)[C@H](CO)NC(=O)[C@H](C)NC(=O)[C@H](CC(=O)O)NC(=O)[C@H](Cc1ccccc1)NC(=O)[C@@H](NC(=O)[C@H](CC(C)C)NC(=O)[C@H](CCC(=O)O)NC(=O)[C@H](CC(=O)O)NC(=O)[C@H](Cc1ccc(O)cc1)NC(C)=O)C(C)C)C(C)C)[C@@H](C)CC)C(=O)N[C@@H](CCCNC(=N)N)C(=O)N[C@@H](CCCCN)C(=O)N[C@@H](CO)C(=O)N[C@@H](CC(=O)O)C(=O)N[C@@H](CCC(=O)O)C(=O)N[C@@H](CC(C)C)C(=O)N[C@@H](CC(C)C)C(=O)N[C@@H](Cc1c[nH]cn1)C(=O)N[C@@H](CC(N)=O)C(=O)N[C@H](C(=O)NCC(=O)N[C@@H](CO)C(=O)NCC(=O)N[C@@H](CO)C(=O)NCC(=O)N[C@@H](CCCCNC(=O)CCC(=O)O[C@H]1CC[C@@]2(C)C(=CC[C@H]3[C@@H]4CC[C@H]([C@H](C)CCCC(C)C)[C@@]4(C)CC[C@@H]32)C1)C(N)=O)C(C)C [Compound 25] (Ac-YDELVFDASQVNEKINQSLEKIRKSDELLHNVGSGSGK(Succinyl(4-O-cholesteryl))-NH2),260
4,CC[C@H](C)[C@H](NC(=O)[C@H](CO)NC(=O)[C@H](C)NC(=O)[C@H](CC(=O)O)NC(=O)[C@H](Cc1ccccc1)NC(=O)[C@H](CCC(=O)O)NC(=O)[C@H](CC(=O)O)NC(C)=O)C(=O)N[C@@H](CO)C(=O)N[C@@H](CCC(N)=O)C(=O)N[C@H](C(=O)N[C@@H](CC(N)=O)C(=O)N[C@@H](CCC(=O)O)C(=O)N[C@@H](CCCCN)C(=O)N[C@H](C(=O)N[C@@H](CC(N)=O)C(=O)N[C@@H](CCC(N)=O)C(=O)N[C@@H](CO)C(=O)N[C@@H](CC(C)C)C(=O)N[C@@H](CCC(=O)O)C(=O)N[C@@H](CCC(=O)O)C(=O)N[C@H](C(=O)N[C@@H](CCCNC(=N)N)C(=O)N[C@@H](CCCCN)C(=O)N[C@@H](CO)C(=O)N[C@@H](CC(=O)O)C(=O)N[C@@H](CCC(=O)O)C(=O)N[C@@H](CC(C)C)C(=O)N[C@@H](CC(C)C)C(=O)N[C@@H](Cc1c[nH]cn1)C(=O)N[C@@H](CC(N)=O)C(=O)N[C@@H](CCC(=O)O)C(=O)N[C@@H](C)C(=O)N[C@@H](C)C(=O)N[C@@H](C)C(=O)N[C@@H](CCCCN)C(=O)N[C@@H](CCCCNC(=O)CCC(=O)O[C@H]1CC[C@@]2(C)C(=CC[C@H]3[C@@H]4CC[C@H]([C@H](C)CCCC(C)C)[C@@]4(C)CC[C@@H]32)C1)C(N)=O)[C@@H](C)CC)[C@@H](C)CC)C(C)C [Compound 28] (Ac-DEFDASISQVNEKINQSLEEIRKSDELLHNEAAAKK(Succinyl(4-O-cholesteryl))-NH2),709
5,CC[C@H](C)[C@H](NC(=O)[C@H](CCCCN)NC(=O)[C@H](CCC(=O)O)NC(=O)[C@H](CC(C)C)NC(=O)[C@H](CO)NC(=O)[C@H](CCC(N)=O)NC(=O)[C@H](CC(N)=O)NC(=O)[C@@H](NC(=O)[C@H](CCCCN)NC(=O)[C@H](CCC(=O)O)NC(=O)[C@H](CC(N)=O)NC(=O)[C@@H](NC(=O)[C@H](CCC(N)=O)NC(=O)[C@H](CO)NC(=O)[C@H](C)NC(=O)[C@H](CC(=O)O)NC(=O)[C@H](Cc1ccccc1)NC(=O)[C@@H](NC(=O)[C@H](CC(C)C)NC(=O)[C@H](CCC(=O)O)NC(=O)[C@H](CC(=O)O)NC(=O)[C@H](Cc1ccc(O)cc1)NC(C)=O)C(C)C)C(C)C)[C@@H](C)CC)C(=O)N[C@@H](CCCNC(=N)N)C(=O)N[C@@H](CCCCN)C(=O)N[C@@H](CO)C(=O)N[C@@H](CC(=O)O)C(=O)N[C@@H](CCC(=O)O)C(=O)N[C@@H](CC(C)C)C(=O)N[C@@H](CC(C)C)C(=O)N[C@@H](Cc1c[nH]cn1)C(=O)N[C@@H](CC(N)=O)C(=O)N[C@H](C(=O)N[C@@H](CCC(=O)O)C(=O)N[C@@H](C)C(=O)N[C@@H](C)C(=O)N[C@@H](C)C(=O)N[C@@H](CCCCN)C(=O)N[C@@H](CCCCNC(=O)CCC(=O)O[C@H]1CC[C@@]2(C)C(=CC[C@H]3[C@@H]4CC[C@H]([C@H](C)CCCC(C)C)[C@@]4(C)CC[C@@H]32)C1)C(N)=O)C(C)C [Compound 30] (Ac-YDELVFDASQVNEKINQSLEKIRKSDELLHNVEAAAKK(Succinyl(4-O-cholesteryl))-NH2),415
